Values from PubChem BioAssay AID624099 (ICCB-Longwood, 2012)

Aim: 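Human genes that papillomavirus E2 requires to repress the HPV18 LCR promoter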 (primary screen)
Cell system: human C33A cervical carcinoma cells (HPV-negative) stably expressing BPV1 E2 and an HPV18 LCR luciferase reporter
Reagents: siRNA pool against human genes, 40 nM
Duration: 72 h
Measurement: 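HPV18 LCR reporter light per well, converted to plate-wise z-scores that exclude control wells, and averaged over triplicate plates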
Reading the numbers: mean z-score and z-score: higher = stronger reporter signal, weaker E2 silencing
Active means: 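Hit if mean z-score reaches 2 and two or more of three replicate z-scores also reach 2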
Shown is one part, drawn at random, of about 21,000 reagents. In the full data, 497 (2.4%) were called active. 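Higher z means weaker E2 silencing; only reporter increases were scored, and knock-downs that hurt cell survival may mask genuine repressor factors.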 Unmarked entries are inactive. Reagent sequences are not shown.

target | PubChem SID | mean z-score | z-score, replicate A | z-score, replicate B | z-score, replicate C
COL27A1 (GeneID 85301) | SID134322639 | -0.38 | -0.43 | -0.33 | -0.38
SIGLEC12 (GeneID 89858) | SID134317655 | -0.4 | -0.33 | -0.56 | -0.29
THSD1 (GeneID 55901) | SID134324759 | -1.21 | -1.25 | -1.38 | -1
CDC34 (GeneID 997) | SID56478590 | 0.25 | 0.22 | 0.31 | 0.22
TXNL1 (GeneID 9352) | SID134316948 | -0.4 | -0.66 | -0.3 | -0.24
C9orf50 (GeneID 375759) | SID134329603 | 1.89 | 1.95 | 1.7 | 2.03
SLC46A3 (GeneID 283537) | SID134322445 | -0.5 | -0.43 | -0.52 | -0.56
MYBPH (GeneID 4608) | SID134323654 | 0.7 | 0.7 | 0.75 | 0.66
BEST2 (GeneID 54831) | SID134324305 | -0.41 | -0.33 | -0.45 | -0.46
ZMYND12 (GeneID 84217) | SID134319762 | -0.6 | -0.47 | -0.7 | -0.62
CXCL8 (GeneID 3576) | SID134310615 | -1.19 | -1.67 | -1.1 | -0.79
HDHD2 (GeneID 84064) | SID134322443 | 0.18 | 0.29 | 0.11 | 0.14
FLG2 (GeneID 388698) | SID134326971 | -0.5 | -0.29 | -0.58 | -0.61
PARP3 (GeneID 10039) | SID134314058 | 0.79 | 0.63 | 0.76 | 0.99
PRRG4 (GeneID 79056) | SID134313104 | 1.29 | 1.14 | 1.37 | 1.36
RNF8 (GeneID 9025) | SID134312028 | -1.13 | -0.93 | -1.18 | -1.26

Records listed so far whose gene name starts with P or p (2):
target | PubChem SID | mean z-score | z-score, replicate A | z-score, replicate B | z-score, replicate C
PARP3 (GeneID 10039) | SID134314058 | 0.79 | 0.63 | 0.76 | 0.99
PRRG4 (GeneID 79056) | SID134313104 | 1.29 | 1.14 | 1.37 | 1.36

Additional records follow:
target | PubChem SID | mean z-score | z-score, replicate A | z-score, replicate B | z-score, replicate C
PPP1R3B (GeneID 79660) | SID134318545 | -1.04 | -0.96 | -1.05 | -1.11
HAUS5 (GeneID 23354) | SID134325782 | 1.86 | 1.84 | 1.79 | 1.94
LOC401068 (retired record) (GeneID 401068) | SID134327331 | -0.47 | -0.36 | -0.55 | -0.49
CEP162 (GeneID 22832) | SID134324182 | -0.3 | -0.36 | -0.52 | -0.01
IL15 (GeneID 3600) | SID134312869 | 0.21 | 0.4 | 0.25 | -0.02
RAB43 (GeneID 339122) | SID134327364 | -0.99 | -0.74 | -1.12 | -1.1
PCDHGA4 (GeneID 56111) | SID134317505 | 0.82 | 0.3 | 1.15 | 1.01
PRDM6 (GeneID 93166) | SID134326065 | -1.09 | -0.68 | -1.53 | -1.05
CXCL5 (GeneID 6374) | SID134312816 | -0.35 | -0.42 | -0.23 | -0.41
ARL5A (GeneID 26225) | SID134316681 | 0.58 | 0.43 | 0.79 | 0.52
LYRM4 (GeneID 57128) | SID134319686 | 1.28 | 1.44 | 1.44 | 0.97
HIRIP3 (GeneID 8479) | SID134315816 | 0.1 | -0.18 | 0.28 | 0.21
FAM9C (GeneID 171484) | SID134321687 | -1.8 | -1.76 | -1.81 | -1.82
PMM2 (GeneID 5373) | SID134315459 | 0.1 | 0.1 | -0.01 | 0.2
CYTIP (GeneID 9595) | SID134317639 | -0.6 | -0.53 | -0.78 | -0.49
ADAM10 (GeneID 102) | SID134310494 | 1.53 | 1.57 | 1.31 | 1.72
RAB38 (GeneID 23682) | SID134314706 | 1.1 | 0.99 | 1.18 | 1.13
PRELID1P6 (GeneID 388955) | SID134327176 | 1.07 | 0.84 | 1.25 | 1.11
ZCCHC14 (GeneID 23174) | SID134318267 | 0.55 | 0.92 | 0.84 | -0.12
PLSCR5 (GeneID 389158) | SID134327373 | 0 | 0.23 | -0.1 | -0.14
UTP4 (GeneID 84916) | SID134319077 | -0.33 | -0.24 | -0.44 | -0.32
SNRPB2 (GeneID 6629) | SID134320883 | 0 | 0.24 | -0.04 | -0.21
ZNF141 (GeneID 7700) | SID134323539 | 0.43 | 0.65 | 0.41 | 0.22
